Compound potency records, mixed from different reports. Data source: NIAID ChemDB in PubChem.

All rows: enzyme or target tests; agent: HIV; target: Reverse transcriptase; endpoint: fold resistance

An empty or dashed field is not shown. Fold resistance has wild type as its base. Rows are shuffled and stem from different studies.

compound | strain | changes | read by | value
COc1ccc2c(c1)N(C(=O)OC(C)C)[C@@H](CSC)C(=S)N2 | - | RT-D67N K70R T215F K219Q Y188H | RT activity | 4.67
Nc1nc2c(ncn2[C@H]2CC[C@@H](COP(=O)(O)OP(=O)(O)OP(=O)(O)O)O2)c(=O)[nH]1 | - | RT-P95A | nucleotide incorporation / radiometric | 28
Cc1cn([C@@H]2O[C@H](CO[Si](C)(C)C(C)(C)C)C3(OS(=O)(=O)C=C3N)[C@H]2O[Si](C)(C)C(C)(C)C)c(=O)n(C)c1=O | - | RT-E138K(P66 ONLY) | - | 1
CC(C)Nc1cccnc1N1CCN(C(=O)c2cc3ccccc3[nH]2)CC1 | - | RT-Y181I | nucleotide incorporation | 89.7
CC(=O)c1ccc(C)cc1NC(C(N)=O)c1c(Cl)cccc1Cl | - | RT-V106A P225H | RT activity | 15
CC(C)=CCOc1cc(NC(=S)c2ccoc2C)ccc1Cl | - | RT-N137D | nucleotide incorporation / radiometric | 0.18
Nc1ccn([C@H]2CC[C@@H](COP(=O)(O)OP(=O)(O)OP(=O)(O)O)O2)c(=O)n1 | - | RT-K65R | - | 4.18
Cc1cn([C@@H]2O[C@H](CO[Si](C)(C)C(C)(C)C)C3(OS(=O)(=O)C=C3N)[C@H]2O[Si](C)(C)C(C)(C)C)c(=O)n(C)c1=O | - | RT-E138K | nucleotide incorporation | >150
CC[C@]1(c2ccccc2)Oc2cccnc2-n2cccc2C1=O | MDR | RT-M41L K103N T215Y | nucleotide incorporation / radiometric | 88
C[C@H](Cn1cnc2c(N)ncnc21)OCP(=O)(O)OP(=O)(O)OP(=O)(O)O | - | RT-K65R | - | 4
Cc1cn([C@@H]2O[C@H](CO[Si](C)(C)C(C)(C)C)C3(OS(=O)(=O)C=C3N)[C@H]2O[Si](C)(C)C(C)(C)C)c(=O)n(C)c1=O | - | RT-V106A P225H | RT activity | >167
CCc1c([Se]c2ccccc2)n(COCc2ccccc2)c(=O)[nH]c1=O | - | RT-V90A | RT activity | 1
c1ccc(C2SCc3nc4ccccc4n32)cc1 | - | RT-K103N Y181I | - | >2
CC[C@H]1C(=O)Nc2ccc(F)cc2N1C(=O)OC(C)C | - | RT-N137D | nucleotide incorporation / radiometric | 1
CCNc1cccnc1N1CCN(C(=O)c2cc3cc4c(cc3[nH]2)OCO4)CC1 | - | RT-Y181C P236L | - | 45.5
CCc1c(Sc2ccccn2)n(COCc2ccccc2)c(=O)[nH]c1=O | - | RT-V90A | RT activity | 1
COc1ccccc1N1CCN(C(=O)c2cc3cc4c(cc3[nH]2)OCO4)CC1 | - | RT-Y181C P236L | - | 3.14
Cc1cc(C)cc(Sc2c(C(C)C)c(=O)[nH]c(=S)n2COCCO)c1 | - | RT-E138K | nucleotide incorporation | 1.8
Cc1c(C(C)c2c(F)cccc2F)nc(NC2CCCC2)[nH]c1=O | - | V179D | nucleotide incorporation / radiometric | 10
Nc1nc2c(ncn2[C@H]2CC[C@@H](COP(=O)(O)OP(=O)(O)OP(=O)(O)O)O2)c(=O)[nH]1 | - | RT-E138K(P66 ONLY) | - | 0.373